Measurements taken from publication PMC7897990, “TriTOX: A novel Trichomonas vaginalis assay platform for high-throughput screening of compound libraries” (International Journal for Parasitology: Drugs and Drug …, 2021).
Where two headings read alike, the source gives them in different places.

Test system: nontumorigenic neonatal foreskin fibroblast (NFF) cell line
[1] = NFF fibroblasts, single concentration 5 µg/mL

## Elaiophylin
NFF_NS1 screen at 5 µg/mL
  NFF_Activity: A (active (A) compounds having >25% inhibitory activity)

## Enniatin A
NFF_NS1 screen at 5 µg/mL
  NFF_Activity: I (otherwise these were reported as inactive (I))

## Enniatin A1
NFF_NS1 screen at 5 µg/mL
  NFF_Activity: I (otherwise these were reported as inactive (I))

## Mithramycin A
[1]
  NFF_Activity: I (otherwise these were reported as inactive (I))

## Oligomycin A
  NFF_Activity: I (key: active (A) compounds having >25% inhibitory activity; otherwise these were reported as inactive (I))

## Penitrem A
[1]
  NFF_Activity: I (otherwise these were reported as inactive (I))

## Pyripyropene A
[1]
  NFF_Activity: I (otherwise these were reported as inactive (I))
